Assay results reported in ChEMBL document CHEMBL3045818, “Two novel trichothecenes from Myrothecium roridum” (2007).

System: Pyricularia oryzae
Experiment: Antifungal activity against Magnaporthe oryzae assessed as concentration required to cause morphological changes after 16 hr by inverted microscopic analysis relative to control

| Structure (SMILES) | Activity [µM/L] |
| --- | --- |
| CC1=C[C@H]2O[C@@H]3C[C@H]4OC(=O)/C=C\C=C\[C@@H](O)[C@H](C)OCC/C(C)=C/C(=O)OCC2(CC1)[C@]4(C)[C@]31CO1 (some centres not stated) | 7.9 |
| CC1=C[C@H]2O[C@@H]3C[C@H]4OC(=O)/C=C\C=C\[C@@H](O)[C@@H](C)OCC/C(C)=C/C(=O)OCC2(CC1)[C@]4(C)[C@]31CO1 (some centres not stated) | 6.2 |
